According to patent US6972343B1, “Quaternary bis-ammonium salt precursors and their uses as prodrugs having an antiparasitic activity” (CNRS, priority 1999, dated 2005):

Tested on: P. vinckei
Type: in vivo
Conditions: mouse
Text: B) Antimalarial Activity in vivo Against a Mouse Infected by P. vinckei and Tolerance After Administration in Acute or Semi-chronic Conditions.
The IC50 is the concentration which inhibits by 50% the in vitro growth of P. falciparum: the LD50 is the lethal dose corresponding to the death of 50% of the mice and the ED50 is the effective dose for inhibiting by 50% the in vivo growth of P. vinckei according to a 4-day suppressive test, TI corresponds to the therapeutic index, TI=LD50 (semi-chronic)/ED50; ip: intraperitoneal administration; po: per os.

Row | Compound | TI (therapeutic index = LD50 semi-chronic/ED50) (po) | TI (therapeutic index = LD50 semi-chronic/ED50) (ip)
1 | CCCSSC(CCO)=C(C)N(C=O)CCCCCCCCCCCCN(C=O)C(C)=C(CCO)SSCCC [TS3b, N,N′-diformyl-N,N′-di[1-methyl-2-propyl-dithio-4-hydroxybut-1-enyl]-1,12-diaminododecane] | 2.3 | 
2 | COCCC(SC(=O)c1ccccc1)=C(C)N(C=O)CCCCCCCCCCCCN(C=O)C(C)=C(CCOC)SC(=O)c1ccccc1 [TE4c, N,N′-diformyl-N,N′-di[1-methyl-2-S-thiobenzoyl-4-methoxybut-1-enyl]-1,12-diaminododecane] |  | ≥ 30
3 | C[N+]1(CCCCCCCCCCCCCCCC[N+]2(C)CCCC2)CCCC1 [G25, 1,16-hexadecamethylene bis-(N-methylpyrrolidinium), reference compound] | 4.4 | 5.2

Where two headings read alike, the source gives them in different places.
